A mixed list of measured activities; the numbers were collected in NIAID ChemDB.

Shared fields: growth or infection tests; species: HIV-1; read-out: fold resistance

An empty or dashed field is not shown. Fold resistance has wild type as its base. Neighbouring rows are from separate reports.

structure,mutations,method,cell line,strain,result
CCOCn1c(Cc2cc(C)cc(C)c2)c(CC)c(=O)[nH]c1=O,RT-Y181I,syncytia,CEM,IIIB,350
CC(C)=CCOc1cc(NC(=S)c2ccoc2C)ccc1Cl,RT-M184V,cytopathic effect / XTT,CEM + CEM-SS,NL4-3 (RT M184V),3.33
Cc1cc(C#N)cc(C(=O)c2cc(Cl)ccc2OCC(=O)Nc2cnc(S(N)(=O)=O)cc2C)c1,RT-K103N,β-galactosidase,HeLa + HELA CD4+,HXB2,~1
CCc1c(C)[nH]c(=O)c(Sc2ccccc2)c1Oc1cc(C)cc(C)c1,RT-Y181C,cytopathic effect / MTT,MT-4,-,16
CC1=C(C(=O)Nc2ccc(Cl)c(C(=O)OC3CCCC3)c2)SCCO1,RT-V106A,syncytia,CEM,Nevirapine-resistant (RT V106A),35
Cc1ccc(C2CC2)c(-c2ccc3c(c2C)CCCO3)c1[C@H](OC(C)(C)C)C(=O)O,INSTI-resistant (IN-G140S),luminescence,MT-4,NL4-3,1
CCc1c(Sc2ccccc2)n(COCc2ccccc2)c(=O)[nH]c1=O,Nevirapine resistant (RT Y181C),syncytia,CEM,IIIB,60
Cc1occc1C(=O)Nc1ccc(Cl)c(SCC=C(Cl)Cl)c1,RT-V106A,syncytia,CEM,Nevirapine-resistant isolate (RT V106A),8.6
CC1=C(C(=O)Nc2ccc(Cl)c(C(=O)OC(C)C)c2)SCCO1,RT-L100I,syncytia,CEM,IIIB,>2700
CCN1c2ncc(CCOc3ccc4cc(CC(=O)O)ccc4c3C)cc2C(=O)N(C)c2cccnc21,RT-K103N Y181C,p24,C8166,-,1
Cc1cc(S(N)(=O)=O)ccc1NC(=O)COc1ccc(Cl)cc1C(=O)c1cc(F)cc(F)c1,RT-G190E,β-galactosidase,HeLa + HELA CD4+,HXB2,~1
COc1ccc(NC(=S)c2ccoc2C)cc1OCC=C(Cl)Cl,RT-Y188H,syncytia,CEM,HEPT-resistant (RT Y188H),833
CCN1c2ncc(CCOc3ccc(/C=C(\C)C(=O)O)c4ccccc34)cc2C(=O)N(C)c2cccnc21,RT-K103N Y181C,p24,C8166,-,1
CC(C)=CCOc1cc(NC(=S)c2ccoc2C)ccc1Cl,RT-Y188L,syncytia,CEM,IIIB,166.7
COc1ccc(NC(=O)C2=C(C)OCCS2)cc1OCC=C(Cl)Cl,RT-K103N,syncytia,CEM,TIBO R82913-resistant (RT K103N),2.5
CCOCn1c(Sc2cc(C)cc(C)c2)c(CC)c(=O)[nH]c1=O,RT-E138K,syncytia,CEM,IIIB,7.5
CC=CCOc1cc(NC(=S)c2ccoc2C)ccc1OC,RT-A98G,cytopathic effect / XTT,CEM + CEM-SS,NL4-3,1
Cc1occc1C(=S)Nc1ccc(Cl)c(/C=N/OC(C)(C)C)c1,RT-Y181C,syncytia,CEM,IIIB,1.5
COc1ccccc1C(=O)Nc1ccc(Cl)c(C(=O)OC(C)C)c1,RT-Y181C,cytopathic effect / XTT,CEM + CEM-SS,UC040-R (RT-Y181C),5.23
C=CCO/N=C/c1cc(NC(=S)c2ccoc2C)ccc1Cl,RT-D67N K70R T215Y K219Q,cytopathic effect / XTT,CEM + CEM-SS,4xAZT(RT-D67N K70R T215Y K219Q),4.29
CCN1c2ncc(CCOc3ccc(CCC(=O)O)c4ccccc34)cc2C(=O)N(C)c2ccc(F)nc21,RT-K103N Y181C,p24,C8166,-,1
Cc1cc(OCCCN2CCOCC2)ccc1NC(=O)COc1ccc(Cl)cc1C(=O)c1cccs1,RT-K103N,β-galactosidase,HeLa + HELA CD4+,HXB2,~1
CC1=C(C(=O)Nc2ccc(F)c(C(=O)OC(C)C)c2)SCCO1,RT-Y181C,syncytia,CEM,PYR-resistant (RT Y181C),>28.6
CCc1c(C)[nH]c(=O)c(Br)c1Oc1cc(C)cc(C)c1,RT-Y181C,cytopathic effect / MTT,MT-4,-,32
CC(C)=CCOc1cc(NC(=S)c2ccsc2C)ccc1Cl,RT-V106I,cytopathic effect / XTT,CEM + CEM-SS,NL4-3 (RT V106I),13.3
COC(=O)c1cc(NC(=O)C2=C(C)OCCS2)ccc1Cl,RT-Y181C,syncytia,CEM,PYR-resistant (RT Y181C),>2.5
CCc1c(Sc2cc(C)cc(C)c2)n(COCc2ccccc2)c(=O)[nH]c1=O,RT-E138K,syncytia,CEM,IIIB,9
CN1CCN(C(=O)c2ccc3c(=O)c4ccccc4[nH]c3c2)CC1,RT-E138K,syncytia,CEM,TSAO-resistant (RT E138K),71.4
Cc1ccsc1C(=S)Nc1ccc(Cl)c(/C=N/OC(C)(C)C)c1,RT-T139I,cytopathic effect / XTT,CEM + CEM-SS,CALO(RT-T139I),2
CCSCC1=C(C(=O)Nc2ccc(Cl)c(C(=O)OC(C)C)c2)SCCO1,RT-V106A,syncytia,CEM,Nevirapine-resistant (RT V106A),2.83
O=C1Nc2ccc(Cl)cc2[C@@](C#CC2CC2)(C(F)(F)F)O1,K103N/Y181C,-,MT-4,-,35
Cc1occc1C(=S)Nc1ccc(Cl)c(C(=O)OCC2CC2)c1,RT-K103N,cytopathic effect / XTT,CEM + CEM-SS,NL4-3,28
CCC1=C(C(=O)Nc2ccc(Cl)c(C(=O)OCC(C)C)c2)SCCO1,RT-V106A,syncytia,CEM,Nevirapine-resistant (RT V106A),60
CCc1c(C)[nH]c(=O)c(C2CC2)c1Oc1cc(C)cc(C)c1,RT-K103N,cytopathic effect / MTT,MT-4,-,32
Cc1occc1C(=S)Nc1ccc(Cl)c(/C=N/OC(C)(C)C)c1,RT-V108I,cytopathic effect / XTT,CEM + CEM-SS,NL4-3,2.5
CC1=C(C(=O)Nc2cccc(C(=O)OC(C)C)c2)SCCO1,RT-V106A,syncytia,CEM,Nevirapine-resistant (RT V106A),>2.5
COc1ccc(NC(=S)c2ccsc2C)cc1OCC=C(Cl)Cl,RT-K103N,syncytia,CEM,TIBO R82913-resistant (RT K103N),320
Cc1cc2cn[nH]c2cc1NC(=O)COc1ccc(Cl)cc1C(=O)c1cccc(C#N)c1,RT-K103N,β-galactosidase,HeLa + HELA CD4+,HXB2,~1
CCc1c(C)[nH]c(=O)c(SC)c1Oc1cc(C)cc(C)c1,RT-K103N,cytopathic effect / MTT,MT-4,-,16
C=C(Cl)COc1cc(NC(=S)c2ccoc2C)ccc1C,RT-L100I,syncytia,CEM,TIBO R82150-resistant (RT L100I),10.6
Cc1ccc(C2CC2)c(-c2ccc3c(c2)CCCO3)c1[C@H](OC(C)(C)C)C(=O)O,PI-resistant ARP-11801 (L10F/G16A/L33F/K43T/L63P/A71V/V82A),luminescence,MT-4,NL4-3,1
CCN1c2ncc(CCOc3ccc(C(=O)O)c4c3CCN(C(=O)OC(C)(C)C)C4)cc2C(=O)N(C)c2cccnc21,RT-K103N Y181C,p24,C8166,-,1
CCOC(=O)c1cc(NC(=O)C2=C(CC)OCCS2)ccc1Cl,RT-L100I,syncytia,CEM,TIBO-resistant (RT L100I),11.4
CCc1c(C)[nH]c(=O)c(SCCC(N)=O)c1Oc1cc(C)cc(C)c1,RT-K103N,cytopathic effect / MTT,MT-4,-,25
CCN1c2ncc(CCOc3ccc(CC(=O)O)c4c3CCCC4)cc2C(=O)N(C)c2ccc(Cl)nc21,RT-K103N Y181C,p24,C8166,-,1
Cc1occc1C(=S)Nc1ccc(Cl)c(C(=O)OC(C)C)c1,RT-V179D,cytopathic effect / XTT,CEM + CEM-SS,NL4-3,20
CCCOC(=O)c1ccc(C)c(NC(=O)C2=C(C)OCCS2)c1,RT-V106A,syncytia,CEM,Nevirapine-resistant (RT V106A),>10
CC(C)=CCOc1cc(NC(=S)c2ccoc2C)ccc1Cl,RT-L100I,syncytia,CEM,IIIB,3
Cc1sccc1C(=S)Nc1ccc(Cl)c(OCC=C(Cl)Cl)c1,RT-L100I,syncytia,CEM,TIBO R82150-resistant (RT L100I),9.29
CCc1c(C)[nH]c(=O)c(OC)c1Oc1cc(C)cc(C)c1,RT-Y181C,cytopathic effect / MTT,MT-4,-,63

A second listing of 7 rows from above:

| structure | mutations | method | cell line | strain | result |
|---|---|---|---|---|---|
| CCCOC(=O)c1ccc(C)c(NC(=O)C2=C(C)OCCS2)c1 | RT-V106A | syncytia | CEM | Nevirapine-resistant (RT V106A) | >10 |
| Cc1ccsc1C(=S)Nc1ccc(Cl)c(/C=N/OC(C)(C)C)c1 | RT-T139I | cytopathic effect / XTT | CEM + CEM-SS | CALO(RT-T139I) | 2 |
| Cc1cc2cn[nH]c2cc1NC(=O)COc1ccc(Cl)cc1C(=O)c1cccc(C#N)c1 | RT-K103N | β-galactosidase | HeLa + HELA CD4+ | HXB2 | ~1 |
| CCN1c2ncc(CCOc3ccc(CCC(=O)O)c4ccccc34)cc2C(=O)N(C)c2ccc(F)nc21 | RT-K103N Y181C | p24 | C8166 | - | 1 |
| Cc1occc1C(=O)Nc1ccc(Cl)c(SCC=C(Cl)Cl)c1 | RT-V106A | syncytia | CEM | Nevirapine-resistant isolate (RT V106A) | 8.6 |
| CC(C)=CCOc1cc(NC(=S)c2ccsc2C)ccc1Cl | RT-V106I | cytopathic effect / XTT | CEM + CEM-SS | NL4-3 (RT V106I) | 13.3 |
| CCOC(=O)c1cc(NC(=O)C2=C(CC)OCCS2)ccc1Cl | RT-L100I | syncytia | CEM | TIBO-resistant (RT L100I) | 11.4 |